# Results of single-concentration screens

The values are deposited in ChEMBL (CHEMBL3988442, “University of Dundee, Small-Polar-MMV Screening Library” (2021)).

Each number is a percent effect as filed.
How 0% and 100% were set is not recorded. Most values in the screen are low, and negative values occur.
This is part of a subset picked to be rich in strong results.
A dash means the value is not listed here; it may have been measured.

Mtb glucose medium: 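Whole-cell growth test on Mycobacterium tuberculosis, read after 3 days in glucose-containing 7H9 medium; the read-out is not stated. Concentration: 500 µM. Higher reads as more growth inhibition (inferred: compounds with an IC50 in retests scored well above the rest). Size under these conditions: about 18,000 compounds, about 1,400 of them at 50% or above in at least one test.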
Mtb cholesterol medium: 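Growth of Mycobacterium tuberculosis over 4 days (cholesterol / DPPC medium with tyloxapol); the read-out is not stated. Compounds at 500 µM. Higher reads as more growth inhibition (inferred: compounds with an IC50 in retests scored well above the rest). About 18,000 compounds were tested under these conditions; 5% (about 900) showed 50% or more at least once.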

SMILES	Mtb glucose medium	Mtb cholesterol medium
N#CCCNCC1CCOC1 (configuration not stated)	5.744%	-
O=C1c2ccccc2OCC1CN1CCOCC1 (configuration not stated)	104.2%	113.3%
Cn1cc(C2NC(=O)CC[C@@H]2N)cn1 (some centres not stated)	3.155%	-
Cc1cc(CS(=O)(=O)Cc2ccc(C(N)=O)cc2)no1	-8.691%	-
CCC(C)N(CCOC)Cc1cc(=O)n(C)c(=O)n1C (configuration not stated)	8.889%	-
CN(C)C(=O)C1(N)CCCCC1	-	-3.977%
CN[C@@H]1COC[C@H]1O	-5.182%	-
O=C(c1ccc(F)cc1)c1ncc[nH]1	25.59%	-
COCCNC(C)(C)CO	9.538%	-
COCc1nn(Cc2ccccc2Cl)c(=O)o1	65.69%	53.31%
Cc1nc[nH]c1CN(C)CC(C)N1CCOCC1 (configuration not stated)	-	2.868%
CNC(=O)CCN1CC(Oc2ccc(C)cc2)C1	13.41%	-
CN1CCCN(C(=O)c2ccco2)c2ccccc21	76.44%	65.22%
Cc1ccc(-c2noc([C@H](N)CCCN)n2)nn1	2.985%	-
Cc1ccnc(NC(=O)CSc2nnc(N)s2)n1	7.293%	-
Cc1ccoc1C(=O)N(C)Cc1snnc1C	30.33%	-
CCC(CO)CC(F)(F)F (configuration not stated)	-	0.3746%
COCCCC(=O)NC1CCc2nccn2C1 (configuration not stated)	-	-20.44%
CCCN(CCC(=O)N(C)C)Cc1nccn1C	-	-19.25%
Cc1cc(C2CCCN2CCS(C)(=O)=O)on1 (configuration not stated)	10.78%	-
COc1cc(CNC(=O)C(C)OCC(C)C)ccn1 (configuration not stated)	52.14%	50.65%
CCCOc1nc(C)cc(COC)c1C(N)=O	-3.103%	-
O=C(Cn1ccc2ccccc21)N1CCCC1	56.53%	57.81%
Cn1cc(NC(=O)Nc2ccc(F)cc2)c(C(N)=O)n1	24.9%	-
NC(=O)CSCC(=O)Nc1ccc(Cl)c(F)c1	31.11%	24.16%
CCN(C)CCNC(=O)c1cc(-c2ccccc2)[nH]n1	-	-7.72%
CC(C)(C)OC(=O)N1C[C@@H](N)[C@H](O)C1	5.876%	-
N#Cc1ccc(OCc2cc(=O)n3ccsc3n2)cc1	8.816%	-
CCc1nccn1CCN1CCCC(NC(C)=O)C1 (configuration not stated)	-	-11.58%
O=S(=O)(c1cc2ccccc2o1)N1CCOCC1	47.15%	-
COCCOC1CCN(c2cccc(C)n2)CC1	54.75%	59.02%
CS(=O)(=O)N1CCCC1c1cccc(F)c1 (configuration not stated)	-	-0.18%
CCN(Cc1cc2cc(C)ccc2nc1O)C(C)=O	40.82%	-
COC(=O)[C@H](C)NC(=O)c1csc(-c2cnccn2)n1	-	4.597%
COc1ccc2c(c1)CN(C(=O)C1CCCOC1)CC2 (configuration not stated)	58.88%	-
CNC1CCN(S(C)(=O)=O)C1 (configuration not stated)	-2.178%	-
O=C(Cc1ccccc1F)Nc1nnc2n1CCCC2	5.812%	-
COCCn1nnc(-c2cccc(OC)c2)n1	86.05%	86.14%
O=C(CCNC(=O)c1cc[nH]n1)NC1CCCCC1	9.511%	-
CC(C)(C)OC(=O)N1CCOCC1	-	-0.6499%
NC(=O)C1CCN(C(=O)COC(=O)c2cccs2)CC1	-1.461%	-1.772%
CCNC(=O)CNc1ccnc2cc(F)ccc12	-2.771%	-
CC(C)CN1CCN(C(=O)CN2CCOCC2)CC1	-	-0.682%
NCC(CO)Cc1ccc(F)c(Br)c1 (configuration not stated)	71.79%	-
Cc1cc(C(=O)N2CCCN(C)CC2)c(C)s1	-	5.693%
Cc1cc(C(=O)NCCCNc2ccccn2)no1	-	-14.65%
NC(=O)c1ccccc1CO	-	-21.18%
COCCN(C)CCCNC(=O)c1cc(C2CC2)[nH]n1	-	5.846%
Cc1cnccc1CCN	-8.708%	-
c1nc(N2CCNCC2)c2sccc2n1	-3.832%	-

The first 5 entries again:

| SMILES | Mtb glucose medium | Mtb cholesterol medium |
|---|---|---|
| `N#CCCNCC1CCOC1` (configuration not stated) | 5.744% | - |
| `O=C1c2ccccc2OCC1CN1CCOCC1` (configuration not stated) | 104.2% | 113.3% |
| `Cn1cc(C2NC(=O)CC[C@@H]2N)cn1` (some centres not stated) | 3.155% | - |
| `Cc1cc(CS(=O)(=O)Cc2ccc(C(N)=O)cc2)no1` | -8.691% | - |
| `CCC(C)N(CCOC)Cc1cc(=O)n(C)c(=O)n1C` (configuration not stated) | 8.889% | - |